{
  "source": "paper PMC5794464",
  "key": {"Stl repressor": {"biological_target": "Stl repressor (UniProt Q9F0J8)", "test": "EMSA", "conditions": "no dUTPase; recombinant protein; protein details: GST tag removed by thrombin on column (pGEX-4T-1); label: none (GelRed stain)"}, "[1]": {"system": "Stl repressor + Drosophila melanogaster dUTPase", "test": "EMSA", "conditions": "D. melanogaster dUTPase added to DNA-Stl, no dissociation, new higher band, putative ternary complex; recombinant protein; label: none (GelRed stain)"}},
  "note": "For at least one entry, the source does not settle the construct or the ends of the probe.",
  "data": [
    {"sequence": "TCCTCGAACAAATTATCTCACATCGAGATATTTATTTCAACAT (double strand) [Inter-R 43-mer]", "values": [
      {"measurement": "binding result", "setting": "Stl repressor", "value": "binds"},
      {"measurement": "binding result", "setting": "[1]", "value": "binds"}
    ]}
  ]
}
